PubChem BioAssay AID504761, Drosophila RNAi Screening Center | 2011
The screen tested about 22,000 reagents; shown is an unselected part of those with a known target gene and a result. Of all reagents, 116 (0.52%) were called active. 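Calls depend on retest data that are not deposited; infection was ranked per plate without normalising between plates; the unit of the infection score is not given.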 Raw values vary from plate to plate and are shown uncorrected. A number with no mark means an inactive call. The numbers tell different reagents against one gene apart. A plus sign joins genes that one reagent is predicted to hit. Reagent sequences are not shown. The record does not give: the amount of reagent, the time to read-out.

Assay: 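Insect host genes that dengue virus relies on to spread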 (primary screen)
Cell system: D.Mel-2 cells from Drosophila
Reagents: long dsRNA against Drosophila genes
Treatment: infection with dengue virus type 2; dose and infection time not stated
Measurement: 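Per well on two replicate plates, imaging gave the percent of cells positive for viral envelope protein, ranked by infection, and a nuclear count of cells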
Reading the numbers: infection score: higher = more virus-infected cells; cell count: higher = more cells in the well
Call rule: 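Low infection ranks in the two replicates (chance level up to 0.065) followed by a retest with a 1.5-fold or larger significant decrease, p below 0.05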
Meaning of the calls: active = confirmed: knock-down lowers infection; inactive = not picked or not confirmed

predicted target	dsRNA no.	infection score, replicate 1	infection score, replicate 2	cell count, replicate 1	cell count, replicate 2
ClC-a (Chloride channel-a)	1	0.82	2.05	6581	6540
ClC-a (Chloride channel-a)	2	0.81	1.76	6308	6578
ClC-a (Chloride channel-a)	3	16	19.9	5989	5802
CG31933	1	3.23	2.53	6590	7063
CG14074	1	9.18	12.8	6197	6446
CG14074	2	2.94	18.5	1053	5081
CG16741	1	3.07	3.5	5923	6456
CG16741	2	2.38	3.57	6038	5885
CG8508	1	10.7	12.2	5295	5205
Xe7	1	3.19	15.8	6260	4621
PGRP-LC (Peptidoglycan recognition protein LC)	1	2.34	2.6	6023	6237
PGRP-LC (Peptidoglycan recognition protein LC)	2	1.23	1.93	5866	6179
PGRP-LC (Peptidoglycan recognition protein LC)	3	1.96	2.34	5654	6057
PGRP-LC (Peptidoglycan recognition protein LC)	4	11.2	6.7	5264	5211
comm2	1	1.14	0.8	5807	6267
tank	1	43.1	24.5	5683	4926
aub (aubergine)	1	16.5	7.54	5804	6352
aub (aubergine)	2	2.73	8.18	6455	6065
Csgalnact (Chondroitin sulfate N-acetylgalactosaminyltransferase)	1	3.69	5.32	949	6010
Tbce (Tubulin-binding cofactor E)	1	13.5	23.7	6072	5425
CG7120	1	3.34	2.58	5752	6506
CG8051	1	3.1	2.35	5190	2000
CG8051	2	3.65	2.62	6143	5999
Sidpn (similar to Deadpan)	1	13.7	12.3	6271	5569
sigmar (salivary glands marred)	1	6.15	5.89	6135	6283
wam (wampa)	1	11	2.53	5403	7103
side-VIII (sidestep VIII)	1	1.32	0.47	6039	5715
side-VIII (sidestep VIII)	2	1.36	0.63	5384	5064
side-VIII (sidestep VIII)	3	3.87	0.44	5944	6435
side-VIII (sidestep VIII)	4	2.25	3.56	5867	6540
side-VIII (sidestep VIII)	5	12.3	16	6002	4697
CG34195	1	12.6	8.55	7070	6607
Hmgcr (HMG Coenzyme A reductase)	1	5.24	11.2	4714	4187
CG12206	1	18	11	4532	3439
Paip2 (polyA-binding protein interacting protein 2)	1	14.7	17.4	3776	3762
CG3165	1	2.75	2.86	6178	6782
nenya	1	5	8.23	6354	5556
Tep2 (Thioester-containing protein 2)	1	4.12	9.14	6292	6599
Tep2 (Thioester-containing protein 2)	2	5.32	5.68	6338	6604
edl (ETS-domain lacking)	1	8.32	4.92	6167	6912
edl (ETS-domain lacking)	2	3.12	10.3	5638	5593
CG13229	1	7.13	3.39	7084	6068
CG42390	1	0.82	1.39	6227	6745
CG42390	2	0.93	5.02	6117	6452
CG18278 + CG30059	1	1.7	0.69	6573	5947
ng3 (new glue 3)	1	1.84	15.1	1194	6008
ng3 (new glue 3)	2	5.65	0.95	5572	5788
CG2258	1	18.9	7.82	6436	6628
CG2258	2	7.83		2400	408
CG5515	1	10.6	1.28	6491	6496
CG30280	1	15	17.9	2181	5040
TpnC41C (Troponin C at 41C)	1	13.8	0.89	3829	675
Inx5 (Innexin 5)	1	2.97	0.46	6066	5816
CG4036	1	20.9	10.5	5934	6130
CG14892	1	2.89	3.92	6398	6431
Rab35	1	0.93	1.28	6331	6728
Rab35	2	13.4	19.4	4996	5313
js (jiangshi)	1	1.09	1.44	6600	6114

Sorted by “infection score, replicate 2” (descending): some entries from above
predicted target	dsRNA no.	infection score, replicate 1	infection score, replicate 2	cell count, replicate 1	cell count, replicate 2
side-VIII (sidestep VIII)	5	12.3	16	6002	4697
side-VIII (sidestep VIII)	4	2.25	3.56	5867	6540
side-VIII (sidestep VIII)	2	1.36	0.63	5384	5064
side-VIII (sidestep VIII)	1	1.32	0.47	6039	5715
side-VIII (sidestep VIII)	3	3.87	0.44	5944	6435
